Results of unrelated studies side by side (data: NIAID ChemDB).

Common to all: enzyme or target tests

Percent inhibition refers to the dose given; in toxicity tests it is the harm to the cells. An empty or dashed field is not shown. Rows are shuffled and stem from different studies. ICn: concentration for n% inhibition.

smiles | read by | tested at | target | measure | strain or isolate | species | value
Cc1c(NC(=O)OC(C)(C)C)ccc2nc(N(CCc3ccccc3)C(=O)NCc3ccncc3)oc(=O)c12 | - | - | Protease | IC50 | - | Herpes simplex virus 1 | >20 µM
O=C(NCc1ccc(Cl)cc1)c1cn(N2CCOCC2)c2ccc(CC3CCOCC3)cc2c1=O | - | - | DNA polymerase | IC50 | - | Herpes simplex virus 1 | 0.17 µM
CC[C@H](C)[C@H](NC(=O)[C@H](C(C)C)N(C)C(=O)Cc1ccc(O)cc1)C(=O)NC(CC(=O)N(C)CCc1ccccn1)C(=O)N[C@@H](CC(=O)O)C(=O)N[C@@H](CC(C)C)C(=O)O | - | - | Ribonucleotide reductase | IC50 | - | Herpes simplex virus 1 | 29 µM
Nc1nc(-c2ccc(NC(=O)CCN(C(=O)c3cccnc3)C3Cc4ccccc4C3)cc2)cs1 | - | - | Helicase-primase | IC50 | F | Herpes simplex virus 1 | 2.6 µM
COc1ccc(Cl)cc1NC(=S)NNC(=S)N/N=C(\C)c1ccccn1 | - | - | Ribonucleotide reductase | IC50 | - | Herpes simplex virus 1 | >5 µM
CCN(C(=O)N(C)CCc1ccccn1)c1nc2ccc(NC(=O)CCCNC(=O)c3ccccn3)c(C)c2c(=O)o1 | - | - | Protease | IC50 | - | Herpes simplex virus 1 | 0.7 µM
Nc1nc2c(ncn2CCC(CO)COP(=O)(O)OP(=O)(O)OP(=O)(O)O)c(=O)[nH]1 | - | - | DNA polymerase | Ki | - | Herpes simplex virus 2 | 9.5 µM
O=c1[nH]cnc2c1ncn2[C@@H]1O[C@H](CO)[C@@H](O)[C@H]1O | - | 2000 µM | DNA polymerase | inhibition | - | Herpes simplex virus 1 | 96%
Nc1nc2c(ncn2COCCOP(=O)(O)OP(=O)(O)OP(=O)(O)O)c(=O)[nH]1 | - | - | DNA polymerase | Ki | - | Herpes simplex virus 2 | 0.003 µM
Nc1nc(-c2ccc(NC(=O)[C@@H]3CCCN3C(=O)c3ccccc3)cc2)cs1 | - | - | Helicase-primase | IC50 | KOS | Herpes simplex virus 1 | 1.5 µM
C/C(=N\NC(=S)NNC(=S)Nc1ccncc1)c1ccccn1 | - | - | Ribonucleotide reductase | IC50 | - | Herpes simplex virus 1 | >5 µM
Nc1nc2c(ncn2[C@@H]2O[C@H](COP(=O)(O)OP(=O)(O)O)[C@@H](O)[C@H]2O)c(=O)[nH]1 | - | - | DNA polymerase | IC50 | - | Herpes simplex virus 1 | <2000 µM
Cc1cn([C@@H]2O[C@H](CO)[C@@H](O)[C@@H]2F)c(=O)nc1N | - | 200 µM | Thymidine kinase | inhibition | F | Herpes simplex virus 1 | 18.5%
Nc1nc(-c2ccc(Cl)cc2)cs1 | - | - | Helicase | IC50 | UL5/8/52 | Herpes simplex virus 1 | 5 µM
O=c1[nH]c(=O)n([C@@H]2O[C@H](CO)[C@@H](O)[C@@H]2F)cc1/C=C/Cl | - | 200 µM | Thymidine kinase | inhibition | G | Herpes simplex virus 2 | 0%
CC(C)(C)OC(=O)N(CCC(=O)Nc1ccc(-c2csc(N)n2)cc1)C1CCc2ccccc21 | - | - | Helicase-primase | IC50 | F | Herpes simplex virus 1 | 21 µM
CC[C@H](C)[C@H](NC(=O)[C@H](C(C)C)N(C)C(=O)Cc1ccc(O)cc1)C(=O)NC(CC(=O)N(C)C)C(=O)N[C@@H](CC(=O)O)C(=O)N[C@@H](CC(C)C)C(=O)O | - | - | Ribonucleotide reductase | IC50 | - | Herpes simplex virus 1 | 0.09 µM
Cc1c(NC(=O)OC(C)(C)C)ccc2nc(N(CCCc3ccccc3)C(=O)NCc3cccnc3)oc(=O)c12 | - | - | Protease | IC50 | - | Herpes simplex virus 1 | >20 µM
O=C(NCc1ccc(Cl)cc1)c1cn(N2CCCC2)c2ccc(CN3CCOCC3)cc2c1=O | - | - | DNA polymerase | IC50 | - | Herpes simplex virus 1 | 1.3 µM
C/C=C/c1cn([C@@H]2O[C@H](CO)[C@@H](O)[C@@H]2O)c(=O)[nH]c1=O | - | 100 µM | Thymidine kinase | inhibition | 91075 | Herpes simplex virus 1 | <0%
CCCCC(=O)NC[C@H]1O[C@@H](n2cc(I)c(=O)[nH]c2=O)C[C@@H]1O | - | - | Thymidine kinase | IC50 | - | Herpes simplex virus 1 | 38 µM
C[C@@H](c1ccccc1)N(CC(=O)Nc1ccc(-c2csc(N)n2)cc1)C(=O)c1ccncc1 | - | - | Helicase-primase | IC50 | KOS | Herpes simplex virus 1 | 3.8 µM
CCOC(=O)NC(=S)NNC(=S)N/N=C(\C)c1ccccn1 | - | - | Ribonucleotide reductase | IC50 | - | Herpes simplex virus 1 | >5 µM
C[C@@H]1CCC[C@H](C)C1NC(=O)N[C@H](C(=O)C[C@@H](CC(=O)C(C)(C)C)C(=O)N[C@H](C(=O)N[C@H](CO)CC(C)(C)C)C1(C(=O)O)CCCC1)C(C)(C)C | radioligand binding / binding | - | Ribonucleotide reductase | IC50 | - | Herpes simplex virus 1 | <0.001 µM
Cc1c(NC(=O)COCc2ccccc2)ccc2nc(N(C(C)C)C(C)C)oc(=O)c12 | - | - | Protease | IC50 | - | Herpes simplex virus 1 | 1.5 µM
CN(C)n1cc(C(=O)NCc2ccc(Cl)cc2)c(=O)c2cc(C#CCO)ccc21 | - | - | DNA polymerase | IC50 | - | Herpes simplex virus 1 | 0.86 µM
Nc1nc(-c2ccc(NC(=O)CCN(Cc3cccc(F)c3)C(=O)c3ccccc3)cc2)cs1 | - | - | Helicase-primase | IC50 | F | Herpes simplex virus 1 | 1.3 µM
CC[C@@H](NC(=O)[C@@H](NC(=O)[C@@H](CC(=O)[C@@H](NC(=O)NC1[C@H](C)CCC[C@@H]1C)C(C)(C)C)CC(=O)C(C)(C)C)C1(C(=O)O)CCCC1)C(C)(C)C | radioligand binding / binding | - | Ribonucleotide reductase | IC50 | - | Herpes simplex virus 1 | <0.001 µM
Nc1nc(-c2ccc(NC(=O)CN(CC3CCCCC3)C(=O)C3CCNCC3)cc2)cs1 | - | - | Helicase-primase | IC50 | KOS | Herpes simplex virus 1 | >50 µM
CN1CCN(n2cc(C(=O)NCc3ccc(Cl)cc3)c(=O)c3cc(CN4CCOCC4)ccc32)CC1 | - | - | DNA polymerase | IC50 | - | Herpes simplex virus 1 | 0.41 µM
Cc1c(NC(=O)OC(C)(C)C)ccc2nc(N(CCc3ccccc3)C(=O)N(C)CCc3ccncc3)oc(=O)c12 | - | - | Protease | IC50 | - | Herpes simplex virus 1 | 0.9 µM
CCCC(CCC)NC(=O)N[C@H](C(=O)C[C@@H](CC(=O)C(C)(C)C)C(=O)N[C@H](C(=O)N[C@H](CC)C(C)(C)C)C1(C(=O)O)CCCC1)C(C)(C)C | radioligand binding / binding | - | Ribonucleotide reductase | IC50 | - | Herpes simplex virus 1 | <0.001 µM
Cc1c(NC(=O)OC(C)(C)C)ccc2nc(N(CCC(C)C)C(=O)N(C)CCc3cccnc3)oc(=O)c12 | - | - | Protease | IC50 | - | Herpes simplex virus 1 | 2 µM
O=C(NCc1ccc(Cl)cc1)c1cn(N2CCOCC2)c2ccc(CN3CCOCC3)cc2c1=O | - | - | DNA polymerase | IC50 | - | Herpes simplex virus 1 | 0.31 µM
Nc1nc(=O)n([C@@H]2O[C@H](CO)[C@@H](O)[C@@H]2F)cc1/C=C/I | - | 200 µM | Thymidine kinase | inhibition | G | Herpes simplex virus 2 | 0%
CCN(C(=O)C(C)(C)Nc1nc2ccc(NC(=O)OC(C)(C)C)c(C)c2c(=O)o1)c1cccnc1 | - | - | Protease | IC50 | - | Herpes simplex virus 1 | 0.7 µM
Nc1nc(-c2ccc(NC(=O)C(=O)N(Cc3ccccc3)Cc3ccccc3)cc2)cs1 | - | - | Helicase-primase | IC50 | KOS | Herpes simplex virus 1 | 1.2 µM
C/C=C/c1cn([C@H]2C[C@H](O)[C@@H](CO)O2)c(=O)[nH]c1=O | - | 100 µM | Thymidine kinase | inhibition | 91075 | Herpes simplex virus 1 | 53%
Nc1ccn([C@@H]2O[C@H](COP(=O)(O)O)[C@@H](O)[C@H]2O)c(=O)n1 | - | 2000 µM | DNA polymerase | inhibition | - | Herpes simplex virus 1 | 89.7%
CCN(C(=O)N(C)CCc1ccccn1)c1nc2ccc(NC(=O)CCCNC(=O)c3cnccc3N(C)C)c(C)c2c(=O)o1 | - | - | Protease | IC50 | - | Herpes simplex virus 1 | 0.4 µM

The last 4 rows once more:

smiles	read by	tested at	target	measure	strain or isolate	species	value
Nc1nc(-c2ccc(NC(=O)C(=O)N(Cc3ccccc3)Cc3ccccc3)cc2)cs1	-	-	Helicase-primase	IC50	KOS	Herpes simplex virus 1	1.2 µM
C/C=C/c1cn([C@H]2C[C@H](O)[C@@H](CO)O2)c(=O)[nH]c1=O	-	100 µM	Thymidine kinase	inhibition	91075	Herpes simplex virus 1	53%
Nc1ccn([C@@H]2O[C@H](COP(=O)(O)O)[C@@H](O)[C@H]2O)c(=O)n1	-	2000 µM	DNA polymerase	inhibition	-	Herpes simplex virus 1	89.7%
CCN(C(=O)N(C)CCc1ccccn1)c1nc2ccc(NC(=O)CCCNC(=O)c3cnccc3N(C)C)c(C)c2c(=O)o1	-	-	Protease	IC50	-	Herpes simplex virus 1	0.4 µM